PubChem BioAssay AID504761 | Drosophila RNAi Screening Center – 2011

- Test: 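Insect host genes that dengue virus relies on to spread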 (primary screen)
- Cell system: D.Mel-2 cells from Drosophila
- Reagent: long dsRNA against Drosophila genes
- Challenge: infection with dengue virus type 2; dose and infection time not stated
- Measured: 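Per well on two replicate plates, imaging gave the percent of cells positive for viral envelope protein, ranked by infection, and a nuclear count of cells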
- Direction: infection score: higher = more virus-infected cells; cell count: higher = more cells in the well
- Rule for the call: 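Low infection ranks in the two replicates (chance level up to 0.065) followed by a retest with a 1.5-fold or larger significant decrease, p below 0.05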
- Calls: active = confirmed: knock-down lowers infection; inactive = not picked or not confirmed
In all, the deposit lists about 22,000 reagents; shown is an unselected part of those that have a named target and a result. In the full data, 116 (0.52%) were called active. 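Calls depend on retest data that are not deposited; infection was ranked per plate without normalising between plates; the unit of the infection score is not given.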 The raw values are shown without normalisation. The numbers tell different reagents against one gene apart. A plus sign joins genes that one reagent is predicted to hit. The record does not give: the amount of reagent, the time to read-out.

| predicted target | dsRNA no. | infection score, replicate 1 | infection score, replicate 2 | cell count, replicate 1 | cell count, replicate 2 | Outcome |
| --- | --- | --- | --- | --- | --- | --- |
| Gdi | 1 | 16.9 | 6.14 | 5688 | 5619 | inactive |
| Gdi | 2 | 8.2 | 0.59 | 5607 | 337 | inactive |
| CG10631 | 1 | 14.2 | 4.57 | 6408 | 6674 | inactive |
| CG1671 | 1 | 6.04 | 13.1 | 5381 | 6130 | inactive |
| CG32079 | 1 | 7.46 | 8.54 | 6312 | 6519 | inactive |
| CG31198 | 1 | 1.59 | 3.02 | 6419 | 5900 | inactive |
| mrn | 1 | 2.24 | 25.6 | 758 | 4423 | inactive |
| CG33331 + CG33332 | 1 | 1.43 | 10.3 | 6299 | 4777 | inactive |
| CG33331 + CG33332 | 2 | – | – | 281 | 783 | inactive |
| Obp83a | 1 | 3.91 | 4.89 | 6668 | 6607 | inactive |
| CG12531 | 1 | 8.63 | 2.86 | 5839 | 6366 | inactive |
| CG12531 | 2 | 2.71 | 6.36 | 6607 | 6398 | inactive |
| CR11386 + CR33222 | 1 | 2.57 | 1.48 | 6232 | 6492 | inactive |
| CR11386 + CR33222 | 2 | 2.34 | 3.95 | 6208 | 6050 | inactive |
| Sf3b5 | 1 | 13.1 | 22.4 | 2600 | 3051 | inactive |
| Wdfy2 | 1 | 20 | 10.6 | 6402 | 6902 | inactive |
| Wdfy2 | 2 | 3.1 | 1.22 | 6705 | 6324 | inactive |
| CG4259 | 1 | – | 4.41 | 374 | 204 | inactive |
| CG4259 | 2 | 0.41 | 24.7 | 243 | 5309 | inactive |
| CG5883 | 1 | 2.99 | 1.66 | 6116 | 6338 | inactive |
| Bmcp | 1 | 11.2 | 23.5 | 2617 | 5230 | inactive |
| Lipt2 | 1 | 3.8 | 13.5 | 6982 | 6444 | inactive |
| Lipt2 | 2 | 6.86 | 1.95 | 6267 | 6465 | inactive |
| CG14877 | 1 | 5.34 | 4.22 | 6465 | 6274 | inactive |
| CG14877 | 2 | 6.11 | 6.67 | 6334 | 6158 | inactive |
| mRpL50 | 1 | 3.64 | 4.81 | 5985 | 6336 | inactive |
| mRpL50 | 2 | 0.31 | 13.2 | 326 | 2280 | inactive |
| CG13833 | 1 | 5.33 | 18.1 | 6754 | 4260 | inactive |
| CG32987 | 1 | 1.94 | 8.84 | 6191 | 6593 | inactive |
| CG32987 | 2 | 5.73 | 1.95 | 1361 | 1027 | inactive |
| CG14418 | 1 | 3.06 | 26 | 6498 | 5987 | inactive |
| beat-IIb | 1 | 6.59 | 5.84 | 5444 | 5271 | inactive |
| beat-IIb | 2 | 1.49 | 14.6 | 6315 | 6358 | inactive |
| beat-IIb | 3 | 20.4 | 33.3 | 7150 | 5470 | inactive |
| eIF2beta | 1 | 13.8 | 6.38 | 2068 | 2130 | inactive |
| eIF2beta | 2 | 19.7 | 21.8 | 2803 | 4326 | inactive |
| Or33a | 1 | 7.29 | 7.53 | 6271 | 6371 | inactive |
| CG14673 (retired record) | 1 | 8.48 | 6.47 | 5922 | 6132 | inactive |
| eIF2gamma | 1 | 17.8 | 3.41 | 1351 | 1319 | inactive |
| eIF2gamma | 2 | 25.4 | 20.4 | 6214 | 6444 | inactive |
| eIF2gamma | 3 | 28.2 | 13.8 | 4570 | 3083 | inactive |

Reformatted: entries from further up
predicted target	dsRNA no.	infection score, replicate 1	infection score, replicate 2	cell count, replicate 1	cell count, replicate 2	Outcome
Gdi	2	8.2	0.59	5607	337	inactive
CG10631	1	14.2	4.57	6408	6674	inactive
CG1671	1	6.04	13.1	5381	6130	inactive
CG32079	1	7.46	8.54	6312	6519	inactive
CG31198	1	1.59	3.02	6419	5900	inactive
mrn	1	2.24	25.6	758	4423	inactive
